Values from PubChem BioAssay AID504761 (Drosophila RNAi Screening Center, 2011).
Screen: 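Fly genes whose silencing reduces dengue virus type 2 infection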 (primary screen). System: D.Mel-2 cells from Drosophila. Reagents: long dsRNA against Drosophila genes. Conditions: infection with dengue virus type 2; dose and infection time not stated. Detection: 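Cells stained for dengue envelope protein and imaged; percent of infected cells per well on duplicate plates, ranked by infection, with stained nuclei counted for cell number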. Direction: infection score: higher = more virus-infected cells; cell count: higher = more cells in the well. Hit rule: 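Low infection ranks in the two replicates (chance level up to 0.065) followed by a retest with a 1.5-fold or larger significant decrease, p below 0.05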. Meaning of the calls: active = confirmed: knock-down lowers infection; inactive = not picked or not confirmed.
The deposit covers about 22,000 reagents; below is an unselected part of those with a known target gene and a result. In the full data, 116 (0.52%) got an active call. 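Calls depend on retest data that are not deposited; infection was ranked per plate without normalising between plates; the unit of the infection score is not given.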 Raw values are not corrected between plates. The numbers tell different reagents against one gene apart. Further read-outs or replicates are left out here. Reagent sequences are not shown. The record does not give: the amount of reagent, the time to read-out.

{"Gene": "CG31431 (GeneID 326138)", "reagent": 1, "infection score, replicate 1": 1.22, "cell count, replicate 1": 6739, "outcome": "inactive"}
{"Gene": "CG4853 (GeneID 36974)", "reagent": 1, "infection score, replicate 1": 6.27, "cell count, replicate 1": 1484, "outcome": "inactive"}
{"Gene": "CG4853 (GeneID 36974)", "reagent": 2, "infection score, replicate 1": 16.6, "cell count, replicate 1": 5079, "outcome": "inactive"}
{"Gene": "Ifrd1 (GeneID 33489)", "reagent": 1, "infection score, replicate 1": 2.05, "cell count, replicate 1": 6533, "outcome": "inactive"}
{"Gene": "Ifrd1 (GeneID 33489)", "reagent": 2, "infection score, replicate 1": 5.72, "cell count, replicate 1": 6509, "outcome": "inactive"}
{"Gene": "CG5611 (GeneID 43318)", "reagent": 1, "infection score, replicate 1": 1.58, "cell count, replicate 1": 6947, "outcome": "inactive"}
{"Gene": "Snx17 (GeneID 34354)", "reagent": 1, "infection score, replicate 1": 15.7, "cell count, replicate 1": 7234, "outcome": "inactive"}
{"Gene": "Snx17 (GeneID 34354)", "reagent": 2, "infection score, replicate 1": 27.1, "cell count, replicate 1": 6181, "outcome": "inactive"}
{"Gene": "mspo (GeneID 36632)", "reagent": 1, "infection score, replicate 1": 15.6, "cell count, replicate 1": 6227, "outcome": "inactive"}
{"Gene": "mspo (GeneID 36632)", "reagent": 2, "infection score, replicate 1": 24.2, "cell count, replicate 1": 2339, "outcome": "inactive"}
{"Gene": "CG12213 (GeneID 41447)", "reagent": 1, "infection score, replicate 1": 8.79, "cell count, replicate 1": 6254, "outcome": "inactive"}
{"Gene": "CG12213 (GeneID 41447)", "reagent": 2, "infection score, replicate 1": 13.1, "cell count, replicate 1": 6137, "outcome": "inactive"}
{"Gene": "CG12213 (GeneID 41447)", "reagent": 3, "infection score, replicate 1": 14.3, "cell count, replicate 1": 4602, "outcome": "inactive"}
{"Gene": "Cpr49Aa (GeneID 246413)", "reagent": 1, "infection score, replicate 1": 13.4, "cell count, replicate 1": 6362, "outcome": "inactive"}
{"Gene": "CG34129 (GeneID 43181)", "reagent": 1, "infection score, replicate 1": 1.19, "cell count, replicate 1": 6390, "outcome": "inactive"}
{"Gene": "Jon66Cii (GeneID 38953)", "reagent": 1, "infection score, replicate 1": 4.05, "cell count, replicate 1": 6127, "outcome": "inactive"}
{"Gene": "Jon66Cii (GeneID 38953)", "reagent": 2, "infection score, replicate 1": 4.7, "cell count, replicate 1": 937, "outcome": "inactive"}
{"Gene": "Sec61beta (GeneID 46080)", "reagent": 1, "infection score, replicate 1": 20.9, "cell count, replicate 1": 6469, "outcome": "inactive"}
{"Gene": "Sec61beta (GeneID 46080)", "reagent": 2, "infection score, replicate 1": 0.03, "cell count, replicate 1": 5741, "outcome": "active"}
{"Gene": "Sec61beta (GeneID 46080)", "reagent": 3, "cell count, replicate 1": 386, "outcome": "inactive"}
{"Gene": "Gr85a (GeneID 117475)", "reagent": 1, "infection score, replicate 1": 3.49, "cell count, replicate 1": 6052, "outcome": "inactive"}

Reformatted: entries from further up.
| Gene | reagent | infection score, replicate 1 | cell count, replicate 1 | outcome |
| --- | --- | --- | --- | --- |
| CG4853 (GeneID 36974) | 2 | 16.6 | 5079 | inactive |
| Ifrd1 (GeneID 33489) | 1 | 2.05 | 6533 | inactive |
| Ifrd1 (GeneID 33489) | 2 | 5.72 | 6509 | inactive |
